These results are taken from PubChem BioAssay AID577 (University of Pittsburgh Molecular Library Screening Center, 2007).

By UniProt entry, the sequences of proteins in these tests, tags left out. Residues count along the entry.
UniProt P06935, 1371-1501 limits assumed: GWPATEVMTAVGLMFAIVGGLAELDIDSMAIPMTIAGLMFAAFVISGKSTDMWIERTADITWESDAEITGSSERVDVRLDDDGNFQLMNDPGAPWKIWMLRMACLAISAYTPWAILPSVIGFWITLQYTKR
UniProt P06935, 1502-1679 limits assumed: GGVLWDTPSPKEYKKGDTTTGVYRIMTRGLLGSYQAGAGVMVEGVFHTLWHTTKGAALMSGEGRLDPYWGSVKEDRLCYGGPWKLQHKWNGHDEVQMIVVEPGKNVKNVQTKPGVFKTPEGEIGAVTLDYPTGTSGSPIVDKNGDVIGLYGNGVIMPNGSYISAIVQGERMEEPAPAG

This is a selection; strong and weak results do not stand in their true shares. Calls of active or inactive are those of the source. Cut-off read from the data, not from the text of the source: active = z-score below about -3; inactive = the rest.

The target in the experiment is Genome polyprotein (West Nile virus) (UniProt P06935). The experiment in a line: West Nile NS2B-NS3 proteinase blockers – biochemical, fluorogenic substrate, primary screen (AID 577). The conditions noted are these: WNV NS2B-NS3 protease, fluorogenic substrate Ex360/Em465; active compounds read low.
Turning to `COc1ccc(NC2CCN(CCc3ccccc3)CC2)c(OC)c1`, the z-score is inactive: 0.02.

Take `O=C(OC1CN2CCC1CC2)C1c2ccccc2Oc2ccccc21` (configuration not stated): the z-score was inactive: 0.8.

With `N#CC1(Nc2ccccc2)CCN(CCc2ccccc2)CC1`, the z-score was inactive: -0.9.

In the case of `N/C(=N\O)c1c(N)no[n+]1[O-]`, the z-score is inactive: -0.34.

Turning to `CCC(CO)(C(=O)OC1CN2CCC1CC2)c1ccccc1` (configuration not stated), the z-score is inactive: -0.09.

Consider `CCOc1ncccc1C(=O)NCC1(N2CCOCC2)CCCCC1`, for which the z-score was inactive: 0.41.

For the compound `Fc1ccccc1NC1CCN(Cc2ccccc2)CC1`, the z-score was inactive: 0.76.
